# Replication capacity of HIV-1 mutants, non-coding ends

Values reported by Al-Mawsawi et al. 2014 (doi:10.1186/s12977-014-0124-6).

Positions lie in the non-coding 5' end or the 3' LTR of the genome. Changes in the 5' U3 are not copied into viral RNA and those in the 3' R are mostly lost on reverse transcription, so a low index there need not show harm (not discussed in the paper).

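Random point mutant libraries of HIV-1 NL4-3, one for each of seven fragments, were passaged in CEM T lymphocytes. Sequencing gave the RC index: frequency after two rounds over frequency in the input plasmid.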

Values are the RC index; higher means better tolerated. The authors read about 0.1 or less as lethal, 0.1-0.2 as attenuated and 0.2 or more as tolerated. An index over 1, which the authors read as above wild type, was rare (1.9% of all changes in the genome).

G402A (region 5' U3) read 0.224.
C358A (region 5' U3) read 0.637.
T282C (region 5' U3) read 0.140.
G9414A (region 3' U3) read 0.790.
G474T (region 5' R) read 0.399.
C9601A (region 3' R) read 0.317.
C598A (region 5' U5/leader) read 0.120.
A451G (region 5' U3) read 0.689.
C9433A (region 3' U3) read 0.542.
T405G (region 5' U3) read 0.533.
C766G (region 5' U5/leader) read 0.0343.
T169C (region 5' U3) read 0.0348.
G9457T (region 3' U3) read 0.581.
G380A (region 5' U3) read 0.188.
A550C (region 5' R) read 0.930.
C754T (region 5' U5/leader) read 0.0530.
A9605T (region 3' R) read 0.241.
G9435C (region 3' U3) read 0.295.
G409A (region 5' U3) read 0.200.
A521T (region 5' R) read 0.536.
T9541A (region 3' R) read 0.134.
T154A (region 5' U3) read 0.0457.
C534T (region 5' R) read 0.205.
C9429T (region 3' U3) read 0.492.
G9474A (region 3' U3) read 1.85.
C9462A (region 3' U3) read 0.595.
C9489A (region 3' U3) read 0.733.
T463C (region 5' R) read 0.809.
T9473C (region 3' U3) read 0.826.
C354A (region 5' U3) read 0.538.
A270T (region 5' U3) read 0.314.
G337A (region 5' U3) read 0.264.
T529C (region 5' R) read 0.742.
T292C (region 5' U3) read 0.0798.
G271A (region 5' U3) read 0.136.
A758T (region 5' U5/leader) read 0.0533.
G9469T (region 3' U3) read 0.622.
C471T (region 5' R) read 0.445.
A750T (region 5' U5/leader) read 0.0610.
G455A (region 5' R) read 0.652.
C9511T (region 3' U3) read 0.754.

Nucleotide positions follow pNL4-3. Clones carried about five changes per kilobase, which can drag down the index of neutral changes.